Publication PMC6191125, “Peptidoglycan potentiates the membrane disrupting effect of the carboxyamidated form of DMS-DA6, a Gram-positive selective antimicrobial peptide isolated from Pachymedusa dacnicolor skin” (PLoS ONE, 2018)
Residues, ends and D or L forms follow the SMILES beside them.

How the values were obtained:
DMPG LUVs = experiment: Differential scanning calorimetry with DMPG LUVs; conditions: DSC
DMPG LUVs + PGN = experiment: Differential scanning calorimetry with DMPG LUVs + peptidoglycan; design: species or system Staphylococcus aureus; conditions: DSC, DMPG LUVs + 0.02% (w/w) PGN
[1] = DMPG LUVs 1 mg.mL^-1, peptide to lipid ratio 1/25
[2] = DMPG LUVs 1 mg.mL^-1, peptide to lipid ratio 1/50
[3] = DMPG LUVs 1 mg.mL^-1, peptide to lipid ratio 1/100

## CC[C@H](C)[C@H](NC(=O)CNC(=O)[C@H](Cc1c[nH]c2ccccc12)NC(=O)[C@@H](NC(=O)CN)C(C)C)C(=O)N[C@@H](C)C(=O)N[C@@H](CCCCN)C(=O)N[C@H](C(=O)N[C@@H](C)C(=O)NCC(=O)N[C@@H](CCCCN)C(=O)N[C@H](C(=O)N[C@@H](CC(C)C)C(=O)NCC(=O)N[C@@H](CC(N)=O)C(=O)N[C@H](C(=O)N[C@@H](CC(C)C)C(=O)N1CCC[C@H]1C(=O)N[C@@H](Cc1c[nH]cn1)C(=O)N[C@H](C(=O)N[C@@H](Cc1ccccc1)C(=O)N[C@@H](CO)C(=O)N[C@@H](CO)C(=O)N[C@@H](CC(N)=O)C(=O)N[C@@H](CCC(N)=O)C(=O)N[C@@H](CO)C(N)=O)C(C)C)[C@@H](C)CC)C(C)C)[C@@H](C)CC [DMS-DA6-NH2] (H-GVWGIAKIAGKVLGNILPHVFSSNQS-NH2)
DMPG LUVs; [1]
  Tm1: 28.0 ± 0.4 °C
  Tm2: 16.1 ± 4.0 °C
  ΔHm1: 2.29 ± 0.382 kcal/mol
  ΔHm2: 0.478 ± 0.072 kcal/mol
DMPG LUVs; [2]
  Tm1: 25.8 ± 0.1 °C
  Tm2: 22.9 ± 0.6 °C
  ΔHm1: 3.75 ± 0.382 kcal/mol
  ΔHm2: 1.34 ± 0.526 kcal/mol
DMPG LUVs; [3]
  Tm1: 23.9 ± 0.2 °C
  ΔHm1: 7.07 ± 0.884 kcal/mol
DMPG LUVs + PGN; peptide to lipid ratio 1/25
  Tm1: 27.9 ± 0.2 °C
  Tm2: 11.2 ± 0.2 °C
DMPG LUVs + PGN; peptide to lipid ratio 1/50
  Tm1: 28.3 ± 0.3 °C
  Tm2: 21.4 ± 0.5 °C
DMPG LUVs + PGN; peptide to lipid ratio 1/100
  Tm1: 26.8 ± 0.2 °C
  Tm2: 23.6 ± 0.2 °C
